Assay results as given in patent US6780414B2 (priority 1998, dated 2004).
Where two headings read alike, the source gives them in different places.

Columns and labels:
[1] = system: S. flexneri-induced PMN transepithelial migration; assay: PMN transepithelial migration assay across T84 cell monolayers; conditions: apical surface pretreated with 300 μM cadaverine, 37° C., 30 min, washed, then infection (FIG. 4)
S. flexneri 2457T = conditions: T84 monolayers, mean ± SEM

SMILES: NCCCCCN [cadaverine, 1,5-diaminopentane]
- ability of 2457T to induce PMN transepithelial migration [1]: dramatically reduced
- % Association 2457T (S. flexneri 2457T; 100 μM cadaverine): 4.49 ± 0.19%
- % Internalization 2457T (S. flexneri 2457T; 100 μM cadaverine): 0.52 ± 0.01%
- % Association 2457T (S. flexneri 2457T; 300 μM cadaverine): 6.01 ± 0.72%
- % Internalization 2457T (S. flexneri 2457T; 300 μM cadaverine): 0.40 ± 0.11%
- % Association 2457T (S. flexneri 2457T; 500 μM cadaverine): 4.00 ± 0.70%
- % Internalization 2457T (S. flexneri 2457T; 500 μM cadaverine): 0.50 ± 0.11%
